Assay results published in the supplement of paper PMC9931576.
Human monoclonal antibodies against the spike receptor-binding domain (heavy:light variable regions). IC50 against pseudoviruses bearing the spike of naturally observed variants; lower = stronger; >10 µg/ml means not reached at the top dose. No active / inactive call. The stated detection limit is 0.0005 µg/ml; values near or below 0.001 µg/ml lie at the floor of the assay.

B1: BD57-0301 (protein)
chain 1: QLVESGGGVVQPGGSLRLSCAASGFTFNDYAMHWVRQTPGKGLEWLSLISGDGVHTYYADSLKGRFTVSRDNSKDSLYLQMNSLTTEDTALYYCARAYCGDDCYPFRIRPSENAMDVWGQGTTVTVSS
chain 2: QSVLTQPPSVSGAPGQRVTISCTGSGSNIGAGYDVHWYQQLPGSAPKLLIYANTNRPSGVPDRFSGSKSGTSASLAITGLQAEDEGDYYCQSSDSDLSGGMFGGGTKLTVL
B2: BD57-0290 (protein)
chain 1: EVQLVESGGGLVKPGGSLRLSCAASGFSFSDAWMTWVRLAPGKGLEWVGHIKSKTDGGTTDHAAPVKGRFTMSRDDSKNTLYLEMNSLKTEDTAVYYCIWSDILTAYINYGMDVWGQGTTVTVSS
chain 2: DIQMTQSPSTLSASVGDRVTITCRASQSISTWLAWYQQKPGKAPELLIYKASTLKSGVPSRFSGSGSGTEFTLTISSLQPDDSATYYCQQYNSYYWTFGQGTKVEIK
B3: BD57-0287 (protein)
chain 1: QLVQSGAAVKKPGASVKVSCKTSGYIFTDHYIHWVRQAPGQGLEWMGWINPNSGATNYTRKFQGRVTMTRDRSISTAYMEVSGLTSDDTAVYYCARDYNKYVVYYYMDVWGKGTTVTVSS
chain 2: QSALTQPPSASGSPGQSVTISCTGTSSDVGGYHYVSWYQQHPGEAPKLIIYEVTTRPSGVPDRFSGSKSGNTASLTVSGLQAEDEADYFCSSYAGNNNLVFGGGTKLTVL
B4: BD57-0291 (protein)
chain 1: QVQLVESGGGVVQPGRSLRLSCTASGFTFRSHSMNWVRQAPGKGLEWVAVLSYDGSNKYYGESVKGRFTISRDNSKNALYLQMSSLRVDDTAVYYCARDTSLSDSTSYNSPAFDSWGQGTLVTVSS
chain 2: SYVLAQPPSVSVAPGKTATITCGGDSIGSKSVHWYQQKPGQAPVLLISYDSDRPSGIPERFSGSNSGNTATLTISRIEAGDEADYYCQVWEIGPVFGTGTTVTVL
B5: BD57-0286 (protein)
chain 1: QVQLEQSRAEVKKPGSSVKVSCKASGNTFSSYAISWVRQAPGQGLEWMGGIIPKFGAAHYAQKFQGRVSITADESTSTAYIELRSLRSEDTAVYFCARALAPYCIGAKCFVLRHWGQGTLVTVSA
chain 2: DVMMTQTPLSLSVTPGQPASISCKSSESLLHSDGQTYLYWFLQKPGQSPQLLIYEVSSRFSGVPDRFSGSGSGTDFTLEISRVEAEDVGIYYCMQGMHLPLTFGGGTRVEIK
B6: BD57-0261 (protein)
chain 1: QVQLVQSGAEVKKPGASVKVSCKASGYTFSNYYIHWVRQAPGQGLEWMGIINPRGGSTDYAQKFQGRLTMTTDTSTSTVHMELGSLRSEDTAVFFCARAHSVTVAGVDYWGQGTLVTVSS
chain 2: QTVVTQEPSLTVSPGGTITLTCASRTGVVTSEYFPNWFQQKPGQAPRALIYSTGNKHSWTPARFSGSLLGGKAALTLSGALPEDEADYYCLLYSGNSWVFGGGTTLTVL
B7: BD57-0293 (protein)
chain 1: QVQLQESGPGLVKPSQTLSLTCTVSGGSISSGDHYWTWVRQHPGKGLEWLGYIHYTGSPFSNPSLKSRVTISVDTSKNQFSLMLNSVTAADTAIYYCARITLDSNDYVLLDNWGQGTLVTVSS
chain 2: DIVMTQIPLSSPVTLGQPASISCRSSQSLVHSDGNTYLSWLQQRPGQPPRLLIYKISKRFSGVPDRFSGSGAGTDFTLKISRVEAEDVGVYYCMQVTQFPWTFGQGTKVEIK
B8: BD57-0263 (protein)
chain 1: QVHLVESGGGVVQPGRSLRLSCAASGFTFSNYAMHWVRQAPGKGLEWVALTSYDGSNTFYADSVKGRFTISRDNSKNTLYLQMNSLRAEDTAVYYCANENEGYHSWSGLGHFDYWGQGTLVTVSS
chain 2: DIQMTQSPSSLSASVGDRVTITCRASRTIITYLNWYQQKPGKPPNLLIYAASTLQTGVPARFSGSGSGTEFTLTISSLQPEDFATYYCQQSFNTPPTFGQGTKVEVK
B9: BD57-0281 (protein)
chain 1: QVTLRESGPALVKPTQTLTLTCTFSGFSLSTHGMCVSWIRLPPGKALEWLARIDWEDDKYYSTSLKTRLTISKDTSKNQVVLTMTNMDPVDTGRYYCARSPSSGQYWPVLIDYWGQGTLVTVSS
chain 2: QSALTQPASVSGSPGQSITISCTGTSSDVGNYNLVSWYQQHPGKAPKLIIYEGSKRPSGVSNRFSGSKSGNTASLTISGLQAEDEADYYCCSFAGTSTVFVFGTGTKVTAL
B10: BD57-0296 (protein)
chain 1: QVQLVQSGAEVKKPGASVKVSCKVSGDTFRSYAISWVRQAPGRGLEWMGWISAYNGNTNYAQNFQGRLTLTTDTSTSTGYLELRSLRSDDTAVYYCAQPVIATTLDSWGQGTLVTVSS
chain 2: EIVLTQSPGTLSLSPGERATLSCRASQSVSTYVAWYQQKPGQAPRLLIYGASSRATGIPHRFSGSGSGTDFTLTISRLEPEDFAVYHCQQYGSSLTFGGGTKVEIK
B11: BD57-0295 (protein)
chain 1: EVQLVQSGAEVKKAGESLKISCKGSGYRFTTYWIAWVRQMPGKGLEWMGIIYPGDSETRYSPSFQGRVTISADKSTNTAYLQWSSLKASDSAMYYCARPNVWFGEFPDWGQGTLVTVSS
chain 2: QSALTQPPSASGSPGQSVTISCTGTSSDVGGYNHVSWYQQHPGKAPKLIIYEVTERPSGVPDRFSGSKSGNTASLTVSGLQADDEADYYCSSYADRNTLVFGGGTRLAVL
B12: BD57-0266 (protein)
chain 1: QVQLQQWGAGLLRPSETLSLTCAVYGGSFSGFYWSWIRQSPGKGLEWIGEITHSGTTEYNPSLKSRVTISIETSKNQFSLKLTSVTPADTALYYCARSRWGWLLRGAFDIWGQGTLFTVSS
chain 2: DIQMTQSPSSLSASVGDRVTITCRASQDISNFLAWFQQKPGKAPKSLIYAASSLQSGVPSKFSGSGSGTDFTLTISSLQPEDFATYYCLQYNDYPYTFGQGTNLEIK

Tests used:
Experiment in all cases: pseudovirus neutralization IC50; higher = weaker neutralization
[1] = biological target: SARS-CoV-2 Omicron BA.1 spike pseudovirus
Procedure: (§1)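 Single-round VSV luciferase pseudovirus mixed with antibody dilutions for 1 h and put on Huh-7 cells for about a day; IC50 from the dose curve.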

[2] = biological target: SARS-CoV-2 Omicron BA.2 spike pseudovirus
Procedure: as §1

[3] = biological target: SARS-CoV-2 Omicron BA.2.75 spike pseudovirus
Procedure: as §1

[4] = biological target: SARS-CoV-2 Omicron BA.5 spike pseudovirus
Procedure: as §1

[5] = biological target: SARS-CoV-2 Omicron BQ.1.1 spike pseudovirus
Procedure: as §1

[6] = biological target: SARS-CoV-2 Omicron XBB spike pseudovirus
Procedure: as §1

[7] = biological target: SARS-CoV-2 early D614G spike pseudovirus
Procedure: as §1

Binder | pseudovirus neutralization IC50 [1] | pseudovirus neutralization IC50 [2] | pseudovirus neutralization IC50 [3] | pseudovirus neutralization IC50 [4] | pseudovirus neutralization IC50 [5] | pseudovirus neutralization IC50 [6] | pseudovirus neutralization IC50 [7]
B1 | 0.249 µg/mL | > 10 µg/mL | 4.48 µg/mL | 5.07 µg/mL | > 10 µg/mL | > 10 µg/mL | 0.0715 µg/mL
B2 | 1.77 µg/mL | 3.69 µg/mL | 3.12 µg/mL | 3.6 µg/mL | 7.78 µg/mL | 3.98 µg/mL | 4.41 µg/mL
B3 | > 10 µg/mL | > 10 µg/mL | > 10 µg/mL | > 10 µg/mL | > 10 µg/mL | > 10 µg/mL | 0.00124 µg/mL
B4 | 2.31 µg/mL | 5.78 µg/mL | 6.18 µg/mL | 3.19 µg/mL | > 10 µg/mL | 2.82 µg/mL | > 10 µg/mL
B5 | > 10 µg/mL | > 10 µg/mL | > 10 µg/mL | > 10 µg/mL | > 10 µg/mL | > 10 µg/mL | > 10 µg/mL
B6 | 0.112 µg/mL | 0.204 µg/mL | 0.0329 µg/mL | > 10 µg/mL | > 10 µg/mL | > 10 µg/mL | 0.00365 µg/mL
B7 | > 10 µg/mL | 0.122 µg/mL | > 10 µg/mL | 0.0624 µg/mL | > 10 µg/mL | > 10 µg/mL | 0.00127 µg/mL
B8 | 0.00117 µg/mL | 0.00273 µg/mL | 0.00244 µg/mL | 0.0211 µg/mL | 0.0578 µg/mL | > 10 µg/mL | 0.00383 µg/mL
B9 | > 10 µg/mL | 0.017 µg/mL | > 10 µg/mL | 0.0151 µg/mL | > 10 µg/mL | > 10 µg/mL | 0.000832 µg/mL
B10 | > 10 µg/mL | 0.0437 µg/mL | > 10 µg/mL | 0.0265 µg/mL | > 10 µg/mL | > 10 µg/mL | 0.00141 µg/mL
B11 | 0.426 µg/mL | 1.37 µg/mL | 1.34 µg/mL | 0.735 µg/mL | 1.2 µg/mL | 1.02 µg/mL | 1.31 µg/mL
B12 | 0.658 µg/mL | 0.786 µg/mL | 0.117 µg/mL | > 10 µg/mL | > 10 µg/mL | > 10 µg/mL | 0.0167 µg/mL
